Reference: PubChem BioAssay AID624099 (ICCB-Longwood, 2012)
The deposit covers about 21,000 reagents; this is an unselected part. 497 of all reagents (2.4%) were called active. 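Higher z means weaker E2 silencing; only reporter increases were scored, and knock-downs that hurt cell survival may mask genuine repressor factors.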 Unmarked entries are inactive.

- Purpose: 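Human genes that papillomavirus E2 requires to repress the HPV18 LCR promoter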 (primary screen)
- Cells: human C33A cervical carcinoma cells (HPV-negative) stably expressing BPV1 E2 and an HPV18 LCR luciferase reporter
- Reagent: siRNA pool against human genes, 40 nM
- Timing: 72 h
- Measurement: 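Per-well luciferase luminescence, z-scored on each plate against the plate mean and SD with control wells left out, then averaged across three replicate plates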
- Reading the numbers: mean z-score and z-score: higher = stronger reporter signal, weaker E2 silencing
- Hit rule: 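Mean z ≥ 2 together with z ≥ 2 in two or more of the three replicates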

Gene,mean z-score,"z-score, replicate A","z-score, replicate B","z-score, replicate C"
CLCNKA,0.6,0.5,0.66,0.64
BOLL,-0.65,-0.51,-0.59,-0.85
NR2F1,-0.09,-0.07,0.19,-0.4
DDX6,-0.37,-0.16,-0.59,-0.34
EIPR1,-1.23,-0.47,-1.62,-1.61
DTD1,-0.04,-0.12,-0.08,0.08
LINC01553,0.8,2.57,-0.15,-0.03
SAMD9L,-0.93,-1.1,-0.69,-1
HAPLN1,-0.53,-0.48,-0.61,-0.51
ATP1B1,1.58,1.47,1.72,1.54
FXR2,-1.31,-0.78,-1.51,-1.66
PSMD4,0.53,0.7,0.59,0.31
OR8B2,-0.62,-0.69,-0.23,-0.92
FLJ44955 (retired record),-0.29,-0.24,-0.45,-0.18
SAA1,1.89,1.7,1.82,2.14
OGDH,0.23,0.34,0.01,0.35
MAL,-0.16,-0.49,0.19,-0.18
IGFBPL1,0.34,0.48,-0.23,0.78
KRTAP10-5,0.34,0.33,0.11,0.58
ENTPD1,1.34,1.46,1.25,1.32
NUCB1,1.16,1.25,1.61,0.62
ERO1A,-0.38,-0.43,-0.34,-0.37
OR6C65,-1.06,-1.09,-0.81,-1.27
ITM2C,1.27,1.41,1.38,1.04
BTG2,0.33,0.23,0.27,0.49
CCDC174,-0.89,-0.56,-1.04,-1.08
RBBP7,1.04,1.3,1.24,0.6
RFX8,-0.29,-0.19,-0.09,-0.6
OR4K17,0.02,0.25,-0.02,-0.18
RHOT1,-1.15,-1.34,-1.31,-0.81
LTBP3,-0.2,-0.13,-0.37,-0.11
LZTS3,-0.9,-0.79,-0.98,-0.94
B4GALT1,-0.71,-0.42,-0.54,-1.17
HSPA5,-1.01,-0.87,-1.31,-0.85
GOLM1,-0.27,-0.19,-0.75,0.14
GRTP1,-0.29,-0.18,-0.09,-0.59
C8A,0.36,0.36,0.49,0.21
YEATS2,0.62,0.36,0.89,0.62
HACE1,1.06,0.92,1.27,0.99

Copied from the entries so far (3 entries):
Gene,mean z-score,"z-score, replicate A","z-score, replicate B","z-score, replicate C"
B4GALT1,-0.71,-0.42,-0.54,-1.17
HSPA5,-1.01,-0.87,-1.31,-0.85
GOLM1,-0.27,-0.19,-0.75,0.14
